Measurements reported in PubChem BioAssay AID624099 (ICCB-Longwood, 2012).
Screen: 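Host factors E2 relies on to silence an HPV18 LCR reporter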 (primary screen). Cells: human C33A cervical carcinoma cells (HPV-negative) stably expressing BPV1 E2 and an HPV18 LCR luciferase reporter. Reagents: siRNA pool against human genes, 40 nM. Duration: 72 h. Read-out: 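Per-well luciferase luminescence, z-scored on each plate against the plate mean and SD with control wells left out, then averaged across three replicate plates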. Scale: mean z-score and z-score: higher = stronger reporter signal, weaker E2 silencing. Call rule: 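Hit if mean z-score reaches 2 and two or more of three replicate z-scores also reach 2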.
This is an unselected part of about 21,000 deposited reagents. 497 of all reagents (2.4%) were called active. 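Higher z means weaker E2 silencing; only reporter increases were scored, and knock-downs that hurt cell survival may mask genuine repressor factors.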

{"Target gene":"SNX25 (sorting nexin 25)","PubChem SID":"SID134318863","mean z-score":0.43,"z-score, replicate A":0.68,"z-score, replicate B":0.34,"z-score, replicate C":0.27,"activity call":"inactive"}
{"Target gene":"AFG3L2 (AFG3 like matrix AAA peptidase subunit 2)","PubChem SID":"SID134311209","mean z-score":-0.69,"z-score, replicate A":-0.51,"z-score, replicate B":-0.87,"z-score, replicate C":-0.68,"activity call":"inactive"}
{"Target gene":"TRMT61B (tRNA methyltransferase 61B)","PubChem SID":"SID134317209","mean z-score":0.3,"z-score, replicate A":0.25,"z-score, replicate B":0.58,"z-score, replicate C":0.08,"activity call":"inactive"}
{"Target gene":"MXD3 (MAX dimerization protein 3)","PubChem SID":"SID134313680","mean z-score":5.19,"z-score, replicate A":5,"z-score, replicate B":5.17,"z-score, replicate C":5.4,"activity call":"active"}
{"Target gene":"GNG5 (G protein subunit gamma 5)","PubChem SID":"SID134316960","mean z-score":0.23,"z-score, replicate A":0.41,"z-score, replicate B":0.1,"z-score, replicate C":0.2,"activity call":"inactive"}
{"Target gene":"CNMD (chondromodulin)","PubChem SID":"SID134323533","mean z-score":0.24,"z-score, replicate A":0.26,"z-score, replicate B":0.29,"z-score, replicate C":0.16,"activity call":"inactive"}
{"Target gene":"GPR19 (G protein-coupled receptor 19)","PubChem SID":"SID134310995","mean z-score":-0.34,"z-score, replicate A":-0.43,"z-score, replicate B":-0.22,"z-score, replicate C":-0.37,"activity call":"inactive"}
{"Target gene":"PAPOLG (poly(A) polymerase gamma)","PubChem SID":"SID134314554","mean z-score":0.96,"z-score, replicate A":0.81,"z-score, replicate B":0.85,"z-score, replicate C":1.22,"activity call":"inactive"}
{"Target gene":"SLC35C1","PubChem SID":"SID134315186","mean z-score":-0.72,"z-score, replicate A":-0.66,"z-score, replicate B":-0.97,"z-score, replicate C":-0.52,"activity call":"inactive"}
{"Target gene":"LOC388069 (retired record)","PubChem SID":"SID134328611","mean z-score":0.21,"z-score, replicate A":0.35,"z-score, replicate B":0.11,"z-score, replicate C":0.17,"activity call":"inactive"}
{"Target gene":"FIRRM (FIGNL1 interacting regulator of recombination and mitosis)","PubChem SID":"SID134324559","mean z-score":-0.99,"z-score, replicate A":-1.1,"z-score, replicate B":-1.21,"z-score, replicate C":-0.67,"activity call":"inactive"}

Not a retest: entries from further up.
{"Target gene":"GNG5 (G protein subunit gamma 5)","PubChem SID":"SID134316960","mean z-score":0.23,"z-score, replicate A":0.41,"z-score, replicate B":0.1,"z-score, replicate C":0.2,"activity call":"inactive"}
{"Target gene":"CNMD (chondromodulin)","PubChem SID":"SID134323533","mean z-score":0.24,"z-score, replicate A":0.26,"z-score, replicate B":0.29,"z-score, replicate C":0.16,"activity call":"inactive"}

The list goes on.
{"Target gene":"NF2 (NF2, moesin-ezrin-radixin like (MERLIN) tumor suppressor)","PubChem SID":"SID134310162","mean z-score":0.74,"z-score, replicate A":0.65,"z-score, replicate B":0.63,"z-score, replicate C":0.94,"activity call":"inactive"}
{"Target gene":"CYB5A (cytochrome b5 type A)","PubChem SID":"SID134323398","mean z-score":0.5,"z-score, replicate A":0.52,"z-score, replicate B":0.51,"z-score, replicate C":0.48,"activity call":"inactive"}
{"Target gene":"GPSM3 (G protein signaling modulator 3)","PubChem SID":"SID134318102","mean z-score":0.44,"z-score, replicate A":0.08,"z-score, replicate B":0.08,"z-score, replicate C":1.15,"activity call":"inactive"}
{"Target gene":"DUSP22 (dual specificity phosphatase 22)","PubChem SID":"SID56478803","mean z-score":-0.33,"z-score, replicate A":0.07,"z-score, replicate B":-0.46,"z-score, replicate C":-0.59,"activity call":"inactive"}
{"Target gene":"REC8 (REC8 meiotic cohesin complex component)","PubChem SID":"SID134324876","mean z-score":0.87,"z-score, replicate A":0.78,"z-score, replicate B":0.86,"z-score, replicate C":0.98,"activity call":"inactive"}
{"Target gene":"ZNF395 (zinc finger protein 395)","PubChem SID":"SID134324096","mean z-score":-0.19,"z-score, replicate A":0.03,"z-score, replicate B":0.02,"z-score, replicate C":-0.63,"activity call":"inactive"}
{"Target gene":"RBM45 (RNA binding motif protein 45)","PubChem SID":"SID134320698","mean z-score":0.19,"z-score, replicate A":0.17,"z-score, replicate B":0.39,"z-score, replicate C":0.02,"activity call":"inactive"}
{"Target gene":"SH2B2 (SH2B adaptor protein 2)","PubChem SID":"SID134315065","mean z-score":-0.4,"z-score, replicate A":-0.28,"z-score, replicate B":-0.52,"z-score, replicate C":-0.41,"activity call":"inactive"}
{"Target gene":"TAL2 (TAL bHLH transcription factor 2)","PubChem SID":"SID134323730","mean z-score":-0.72,"z-score, replicate A":-0.58,"z-score, replicate B":-0.84,"z-score, replicate C":-0.75,"activity call":"inactive"}
{"Target gene":"POLQ (DNA polymerase theta)","PubChem SID":"SID134319231","mean z-score":-0.19,"z-score, replicate A":-0.15,"z-score, replicate B":-0.17,"z-score, replicate C":-0.25,"activity call":"inactive"}
